Assay results published in paper PMC2920228, “Investigation of the chaperone function of the small heat shock protein — AgsA” (2010).

Assays:
[1] = target: ΔN11, N-terminal 11 AA truncated AgsA, His-tagged (Salmonella enterica serovar Typhimurium); test: SEC; data not shown; run at 42°C
[2] = target: ΔN11, N-terminal 11 AA truncated AgsA, His-tagged (Salmonella enterica serovar Typhimurium); test: SEC; data not shown; run at 25°C
[3] = target: ΔN11, N-terminal 11 AA truncated AgsA, His-tagged (Salmonella enterica serovar Typhimurium); test: SEC; data not shown; run at 50°C

ΔN11, N-terminal 11 AA truncated AgsA, His-tagged (domain or fragment)
stoichiometry N [1]: 6 subunits | stoichiometry N [2]: 21 subunits | stoichiometry N [3]: 2 subunits
